The source made the active and inactive calls. The calls are words filed in the database; no cut-off is given here.
Tests used:
Mus musculus [1] = assay: Inhibition of morphine-induced analgesia in Swiss Webster mouse assessed as increase in morphine ED50 at 1.2 nmol, icv after 2 hrs by tail flick test relative to control
Mus musculus [2] = assay: Analgesic activity in Swiss Webster mouse at 0.6 to 4.8 nmol, icv after 2 hrs by tail flick test
Mus musculus [3] = assay: Inhibition of morphine-induced analgesia in Swiss Webster mouse assessed as change in morphine ED50 at 1.2 nmol, icv after 10 mins in presence of naloxone
Mus musculus [4] = assay: Inhibition of morphine-induced analgesia in Swiss Webster mouse assessed as increase in morphine ED50 at 1.2 nmol, icv after 72 hrs by tail flick test relative to control
Mus musculus [5] = assay: Inhibition of morphine-induced analgesia in Swiss Webster mouse assessed as increase in morphine ED50 at 0.6 nmol, icv after 2 hrs by tail flick test
Mus musculus [6] = assay: Inhibition of morphine-induced analgesia in Swiss Webster mouse assessed as change in morphine ED50 at 2.4 nmol, icv after 2 hrs by tail flick test; format: functional, organism-based
Mus musculus [7] = assay: Inhibition of morphine-induced analgesia in Swiss Webster mouse assessed as increase in morphine ED50 at 1.2 nmol, icv after 24 hrs by tail flick test relative to control
Mus musculus [8] = assay: Effect on development of dependence to morphine in Swiss Webster mouse assessed as increase in naloxone ED50 for eliciting withdrawal jumping at 0.24 nmol, icv after 72 hrs relative to control; format: functional, organism-based
Procedure, shortened: (§1)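 Male Swiss Webster mice, 20-25 g. Given icv injection (4 µL saline vehicle) immediately after sc implantation of a 50 mg morphine or placebo pellet. At 24 and 72 h, naloxone given sc (10 mL/kg saline) and ED50 taken for precipitated withdrawal jumping (Way method). Groups of 4-5 mice per ED50.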

Mus musculus [9] = assay: Analgesic activity in Swiss Webster mouse at 4.8 nmol, icv after 60 mins by tail flick test
Mus musculus [10] = assay: Analgesic activity in Swiss Webster mouse at 4.8 nmol, icv after 10 to 20 mins by tail flick test relative to control
Mus musculus [11] = assay: Effect on development of dependence to morphine in Swiss Webster mouse assessed as increase in naloxone ED50 for eliciting withdrawal jumping at 0.24 nmol, icv after 24 hrs relative to control; format: functional, organism-based
Procedure, shortened: as §1

`Oc1ccc2c3c1O[C@H]1[C@H](N(CCCl)CCCl)CC[C@@]4(O)[C@@H](C2)N(CC2CC2)CC[C@]314` was tested, and the fold change (FC) (Mus musculus [1]) was 66, the Activity (Mus musculus [2]) was “inactive” and the inhibition (Mus musculus [3]) was “inactive”. It also gave a fold change (FC) (Mus musculus [4]) of 2, a fold change (FC) (Mus musculus [5]) of 7 and a fold change (FC) (Mus musculus [6]) of 179. For the same compound, the fold change (FC) (Mus musculus [7]) was 6, the fold change (FC) (Mus musculus [8]) was > 5 and the Activity (Mus musculus [9]) was “inactive”. It also gave an Activity (Mus musculus [10]) of 18% and a fold change (FC) (Mus musculus [11]) of 14.

Reference: ChEMBL document CHEMBL3228038 (J Med Chem, 1979)
